# Test system: mung bean sprouts
# Experiment: Mung bean sprouts sealed in 1 L glass jars with antimicrobial compounds at 4° C.
# Design: species or system Mung bean (Vigna radiata)
# Conditions: low concentration: AITC <1.5 mg/L, diacetyl <8 mg/L
smiles,measurement,value
"CC(=O)C(C)=O [Diacetyl, 2,3-butanedione]",respiration rates of the sprouts,higher than the untreated control

# From US11013249B2, “Compositions for controlled release of volatile compounds” (University of Guelph, priority 2016, dated 2021)
